The numbers were not newly measured in US10676780B2, “Stabilisation and isolation of extracellular nucleic acids” (QIAGEN GmbH, priority 2011, dated 2020), which cites them from elsewhere.

pIC50: −log10 of the molar value.

The data set concerns protein tyrosine phosphatase. As to conditions: cited from earlier work.

As to Phenylarsine Oxide, the pIC50 is 4.74.
